One experiment concerns the target DRB1*0101 (human) (UniProt P01903). Put plainly: competition.
Another experiment addresses DRB1*0401 (human) (UniProt P01903). Nature of the experiment: competition.

One may read the IC50 as the concentration that gives 50% inhibition. Higher therefore signals weaker potency. As for Influenza haema 103-115, the IC50 with DRB1*0101 (human) was found to be 9 µM; with DRB1*0401 (human), 7 µM.

Source of the values: patent US20060062761A1.
